A mixed list of measured activities; the numbers were collected in NIAID ChemDB.

Shared fields: tests in culture; organism: Human cytomegalovirus; read-out: EC50

Neighbouring rows are from separate reports. a–b is a range or a potency band. ECn is the concentration giving n% inhibition of infection, replication or growth. Blank or dashed fields: not listed here.

structure | strain or isolate | cell line | read by | result
COc1ccc2[nH]c3c4[nH]c5ccc(OC)cc5c4c4c(c3c2c1)C(=O)NC4=O |  | VERO | plaque count | 10 µM
O=c1[nH]cnc2c1ncn2[C@H]1CC[C@@H](CO)O1 |  | NHDF |  | >100 µM
Nc1nccc2c1ncn2[C@@H]1C[C@H](CO)[C@@H](O)[C@H]1O | DAVIS (20 PFU) | HEL | plaque count | 0.95 µg/mL
Nc1nc2ncn(COCCCl)c2c(=O)[nH]1 | AD169 | VERO | cytopathic effect | >128 µg/mL
COc1cc(O)c2c(=O)cc(-c3ccc(OC)c(-c4c(O)cc(O)c5c(=O)cc(-c6ccc(O)cc6)oc45)c3)oc2c1 | TOWNE | HeLa | plaque count | 1.75 µg/mL
Cc1cccc2c1OP(=O)(OC[C@H]1O[C@@H](n3cc(/C=C/Br)c(=O)[nH]c3=O)C[C@@H]1OC(=O)[C@@H](N)Cc1ccccc1)OC2 | AD169 | HELF | plaque count | >128 µg/mL
C[C@@H]1C[C@@H](n2cnc3c(N)ncnc32)[C@H](O)[C@@H]1O | AD-169 (20 PFU) | HEL | plaque count | 175 µg/mL
O=c1[nH]c(=O)n([C@H]2C[C@H](O)[C@@H](COP3(=O)OCc4cc5ccccc5cc4O3)O2)cc1/C=C/Br | AD169 | HELF | plaque count | >128 µg/mL
O=C1NC(=O)[C@H](c2c[nH]c3ccccc23)[C@H]1c1c[nH]c2ccccc12 |  | VERO | plaque count | >10 µM
O=C1NCc2c1c1c3ccccc3[nH]c1c1[nH]c3ccccc3c21 | A6245 | HEF | plaque count | 0.17 µM
Cc1cc(Nc2ccc(O)c3c2C(=O)c2ccccc2C3=O)cc(S(=O)(=O)O)c1 | EC | HFF | plaque count | 120 µM
O=C1c2ccccc2C(=O)c2c1ccc(O)c2O | Ganciclovir-resistant | MRC-5 | plaque count | 3.7 µM
Nc1ccn(C[C@@H](CO)OCP(=O)(O)O)c(=O)n1 |  | NHDF |  | 0.5 µM
C[C@H](N)C(=O)OCP(=O)(OC[C@H]1O[C@@H](n2ccc3c(N)ncnc32)C[C@@H]1O)Oc1ccccc1 | DAVIS | HEL |  | >100 µM
O=C1NC(=O)c2c1c1c3ccccc3[nH]c1c1c2c2ccccc2n1Cc1ccccc1 |  | VERO |  | >10 µM
Nc1nc2c(ncn2[C@H]2C=C[C@@H](CO)CC2)c(=O)[nH]1 | AD169 | HEL | plaque count | 1.05 µg/mL
Nc1nc(F)nc2c1ncn2/C=C1\CC1CO | TOWNE | HFF | plaque count | >100 µM
Nc1nccc2c1ncn2[C@@H]1C=C(CO)[C@@H](O)[C@H]1O | AD-169 (20 PFU) | HEL | plaque count | 0.15 µg/mL
O=c1cc(-c2ccc(O)c(O)c2)oc2cc(O)cc(O)c12 | Isolate 6 | HEF | plaque count | 8.4 µM
O=C(O)c1cc(O)c2c(c1)C(=O)c1cccc(O)c1C2=O | AD169 | MRC-5 | plaque count | 5.6 µM
O=C(NCCc1c[nH]c2ccccc12)C1=Cc2ccncc2CC1 | AD169 | HS68 | plaque count | 0.09 µM
CC[C@H](C)[C@H](N)C(=O)O[C@H]1C[C@H](n2cc(/C=C/Br)c(=O)[nH]c2=O)O[C@@H]1COP1(=O)OCc2cccc(C)c2O1 | AD169 | HELF | plaque count | >128 µg/mL
Cc1ccc(Cn2c(=O)ccn(CC#N)c2=O)cc1C | AD169 |  |  | 117 µM
OC[C@H]1O[C@@H](n2c(Br)nc3cc(Cl)c(Cl)cc32)[C@H](O)[C@@H]1O |  |  |  | 0.7 µM
Nc1nc2c(ncn2COC(CO)CO)c(=O)[nH]1 | AD169 | MRC-5 | plaque count | 10.6 µM
O=C(NCCCC[C@@H](CNC(=O)c1cccc(O)c1O)NC(=O)c1cccc(O)c1O)c1cccc(O)c1O | AD169 |  |  | 0.7 µg/mL
Cc1cc(C)cc(Cn2c(=O)ccn(Cc3ccccc3)c2=O)c1 | AD169 |  |  | 1 µM
Nc1nc(Cl)nc2c1ncn2/C=C1/CC1CO | TOWNE | HFF | plaque count | 3.5 µM
Nc1c(S(=O)(=O)O)cc(Nc2ccc(S(=O)(=O)O)c(Nc3nc(Cl)nc(Cl)n3)c2)c2c1C(=O)c1ccccc1C2=O | EC | HFF | plaque count | 15 µM
Cc1cc(C)cc(Cn2c(=O)c(C)cn(Cc3ccccc3)c2=O)c1 | AD169 |  |  | 12 µM
COC(=O)CN(CC(=O)OC)P(=O)(OC[C@H]1O[C@@H](n2cc(/C=C/Br)c(=O)[nH]c2=O)C[C@@H]1O)Oc1ccccc1 | AD169 | HEL |  | >100 µM
Nc1ncnc2c1ncn2[C@@H]1C[C@H](c2ccccc2)[C@@H](O)[C@H]1O | AD-169 (20 PFU) | HEL | plaque count | 18.1 µg/mL
CC(C)Nc1nc2nc3cc(Cl)c(Cl)cc3nc2n1C1OC(CO)C(O)C1O | TOWNE | KB | plaque count | 32 µM
C=C[C@H]1C[C@@H](n2cnc3c(N)ncnc32)[C@H](O)[C@@H]1O | DAVIS (20 PFU) | HEL | plaque count | 4 µg/mL
Nc1nc2c(ncn2[C@@H]2C=C[C@H](CO)CC2)c(=O)[nH]1 | U 9070 | HEL | plaque count | 0.13 µg/mL
Nc1nccc2c1ncn2[C@@H]1O[C@H](CO)[C@@H](O)[C@H]1O | AD-169 (100 PFU) | HEL | cytopathic effect | 10 µg/mL
Nc1nccc2c1ncn2[C@H]1C[C@H](O)[C@@H](COP(=O)(O)COC(=O)[C@@H](N)CC(=O)O)O1 | AD169 | HEL |  | >100 µM
CC(=O)CCC(=O)O[C@H]1C[C@H](n2cc(/C=C/Br)c(=O)[nH]c2=O)O[C@@H]1COP1(=O)OCc2cccc(C)c2O1 | AD169 | HELF | plaque count | >128 µg/mL
O=C1NC(=O)c2c1c1c3ccccc3[nH]c1c1[nH]c3ccccc3c21 |  | VERO | plaque count | 0.2 µM
C[C@H](N)C(=O)OCP(=O)(OC[C@H]1O[C@@H](n2cc(/C=C/Br)c(=O)[nH]c2=O)C[C@@H]1O)Oc1ccccc1 | AD169 | HEL |  | >20 µM
OC[C@H]1O[C@@H](n2c(Cl)nc3cc(Cl)c(Cl)cc32)[C@H](O)[C@@H]1O |  |  |  | 2.9 µM
Nc1ncnc2c1ncn2C[C@H](O)CO | DAVIS (100 PFU) | HEL | cytopathic effect | >100 µg/mL
Cc1ccc(S(=O)(=O)NC(N)=NCCC[C@H](NC(=O)OCc2cc(C)ccc2C)C(=O)N[C@H](C(=O)NC(C=O)CC(C)C)C(C)C)cc1 |  |  |  | 0.007 µM
Cc1ccc(C)c(Cn2c(=O)ccn(CC#N)c2=O)c1 | AD169 |  |  | >186 µM
Nc1[nH]c(=O)nc2c1ncn2/C=C1/C[C@@H]1CO | TOWNE | HFF | plaque count | >100 µM
Cc1cc(C)cc(Cn2c(=S)ccn(Cc3ccccc3)c2=O)c1 | AD169 |  |  | 9.5 µM
C[C@H](N)C(=O)OCP(=O)(OC[C@H]1O[C@@H](n2cnc3c(N)ccnc32)C[C@@H]1O)Oc1ccccc1 | AD169 | HEL |  | >100 µM
O=C1c2ccccc2C(=O)c2c1cc(S(=O)(=O)O)c(O)c2O | AD169 | HFF | cytopathic effect | >100 µM
CC1=C(C)C(CO)(CO)C[C@H]1n1cnc2c(N)ncnc21 | AD169 | HEL 299 | cytopathic effect | 30.1 µg/mL
CC1OP(=O)(OC[C@H]2O[C@@H](n3cc(/C=C/Br)c(=O)[nH]c3=O)C[C@@H]2O)Oc2cccc(Cl)c21 | AD169 | HELF | plaque count | >128 µg/mL
NC(=O)c1ncn([C@@H]2O[C@H](CO)[C@@H](O)[C@H]2O)n1 | DAVIS (20 PFU) | HEL | plaque count | >100 µg/mL
Nc1ccn(C[C@@H](CO)OCP(=O)(O)O)c(=O)n1 | P | MRC-5 | plaque count | 0.8 µM
CC1=C(C)[C@](CO)(c2ccccc2)C[C@H]1n1ccc(N)nc1=O | AD169 | HEL 299 | cytopathic effect | >100 µg/mL
Nc1ccn(C[C@@H](CO)OCP(=O)(O)O)c(=O)n1 | CMV5USA | HEL | plaque count | 0.1 µg/mL
N#CCn1ccc(=O)n(Cc2cc(Cl)cc(Cl)c2)c1=O | AD169 |  |  | 64 µM
C[C@H]1[C@@H](OC(=O)CCC(=O)O)O[C@@H]2O[C@@]3(C)CC[C@H]4[C@H](C)CC[C@@H]1[C@@]24OO3 | AD169 | MRC-5 | plaque count | 1.96 µM
C[C@H](N)C(=O)OCP(=O)(OC[C@H]1O[C@@H](n2cnc3c(Cl)nccc32)C[C@@H]1O)Oc1ccccc1 | AD169 | HEL |  | >100 µM
O=C1NC(=O)c2c1c1c3ccc(O)cc3[nH]c1c1[nH]c3cc(O)ccc3c21 |  | VERO | plaque count | 4.6 µM
Cc1cc(C)c(S(=O)(=O)O)c(C)c1Nc1ccc(Nc2c(C)cc(C)c(S(=O)(=O)O)c2C)c2c1C(=O)c1ccccc1C2=O | AD169 | HFF | cytopathic effect | >200 µM
CCCC/C(O)=C(\C#N)C(=O)Nc1ccc(C(F)(F)F)cc1 | MAJOR | HEL 299 | plaque count | 830–1090 µM
CC1=CC(S(=O)(=O)O)=C(Nc2cccc3c2C(=O)c2cccc(Nc4ccc(C)cc4S(=O)(=O)O)c2C3=O)CC1 | AD169 | HFF | cytopathic effect | 10 µM
Cc1cc(O)c2c(c1)/C(=C1\c3cc(C)cc(O)c3C(=O)c3c(O)cc(O)cc31)c1cc(O)cc(O)c1C2=O | Ganciclovir-resistant | MRC-5 | plaque count | 0.8 µM
CC(=O)OC(SCCC(C)C)C(CC(C)C)NC(=O)[C@@H](NC(=O)[C@H](CCCN=C(N)NS(=O)(=O)c1ccc(C)cc1)NC(=O)OCc1cc(C)ccc1C)C(C)C |  |  |  | 0.028 µM
Nc1nc2c(ncn2COC(CO)CO)c(=O)[nH]1 | Isolate 6 | HEF | plaque count | 42.7 µM
OCC1OC(n2cnc3nc4cc(Cl)c(Cl)cc4nc32)C(O)C1O | TOWNE | KB | plaque count | 32 µM
N#CCn1ccc(=O)n(Cc2c(F)cccc2F)c1=O | AD169 |  |  | >180 µM
CCCCCNc1ccc(NCCCCC)c2c1C(=O)c1ccccc1C2=O | AD169 | HFF | cytopathic effect | >260 µM
O=C1c2ccc(O)c(O)c2C(=O)c2c(O)ccc(O)c21 | Ganciclovir-resistant | MRC-5 | plaque count | 1.5 µM